{"source": "patent US10207993B2", "about": "(priority 2014, dated 2019)", "test_system": "H37Rv", "assay": "Inhibition of Mycobacterium colony growth in THP1 macrophages (CFU counts)", "type": "cell-based, M. tuberculosis", "settings": "PMA-differentiated THP-1, MOI 10, CFU at 90 hr", "data": [{"compound": "CC(O)(C(=O)OC1CN(Cc2ccccc2)C1)c1ccccc1", "note": "(stereo not shown)", "values": [{"measurement": "H37Rv % Inhibition at 500 nM", "result": 78, "unit": "%"}]}]}
